Anti-infective test results gathered from many reports (values: NIAID ChemDB through PubChem).

Common to all: whole-cell or culture tests; agent: HIV-1

a–b is a range or a potency band.

smiles,cells,read by,changes,read-out,setting,strain or isolate,result
CC(C)(C)NC(=O)[C@@H]1CN(Cc2cccnc2)CCN1C[C@@H](O)C[C@@H](Cc1ccccc1)C(=O)N[C@H]1c2ccccc2C[C@H]1OC(=O)CCCCOc1ccc(C[C@H](N)C(=O)O)cc1,MT-4,cytopathic effect / MTT,,EC50,,IIIB,0.047 µM
C/C=C/CSc1cc(NC(=S)c2ccsc2C)ccc1Cl,CEM + CEM-SS,p24,RT-D67N K70R T215Y K219Q,EC50,,4xAZT(RT-D67N K70R T215Y K219Q),0.04 µM
CC(C)CCC[C@@H](C)[C@H]1CC[C@H]2[C@@H]3CC[C@H]4C[C@@H](NC(=O)C=C(c5cc(Cl)c(O)c(C(=O)O)c5)c5cc(Cl)c(O)c(C(=O)O)c5)CC[C@]4(C)[C@H]3CC[C@]12C,MT-4,cytopathic effect / MTT,,EC50,,IIIB,15.1 µM
CC(C)CN(C[C@@H](O)[C@H](Cc1ccccc1)NC(=O)[C@@H](N1CCN(Cc2cccnc2)C1=O)C(C)(C)C)S(=O)(=O)c1ccc(/C=N/O)cc1,MT-4,cytopathic effect / MTT,,EC50,50% human serum,,0.012 µM
COc1cc(C[C@H]2C(=O)OC[C@@H]2Cc2ccc(OC)c(OC)c2)ccc1O,H9,p24,,EC80,,IIIB,0.05–0.9 µM
NC(=O)C[C@H](NC(=O)CNC1c2ccc3cc4c5c6c(cc7ccc8cc9cc1c1c9c9c8c7c6c9c6c1c2c3c56)C4)C(=O)O,PBMC,p24,,EC50,,,140 µM
Cc1cc2c(OCc3ccccc3)cc3c(c2oc1=O)[C@@H](OC(=O)C12CCC(C)(C(=O)O1)C2(C)C)[C@@H](OC(=O)C12CCC(C)(C(=O)O1)C2(C)C)C(C)(C)O3,H9,,,EC50,,IIIB,1.54 µM
Cc1ccc(-c2c(C)c3c(c(C)c2[C@H](OC(C)(C)C)C(=O)O)N(S(C)(=O)=O)Cc2cc(F)ccc2-3)cc1,MT-4,MTT,T174I,EC50,,,0.36 µM
Fc1cc(Nc2nc(-c3cncc(Br)c3)nc3ccccc23)cc(F)c1F,MT-4,ELISA,,EC50,,NL4-3,3 µM
Cc1c(-c2ccccc2)c(=S)oc2c3c(ccc12)OC(C)(C)[C@H](OC(=O)C12CCC(C)(C(=O)O1)C2(C)C)[C@@H]3OC(=O)C12CCC(C)(C(=O)O1)C2(C)C,H9,,,EC50,,IIIB,4.95 µM
CCN(CC)C(=O)OCC1CN(C(=O)c2cc(OC)c(O)c(OC)c2)CCN1C(=O)c1cc(OC)c(O)c(OC)c1,MDM,RT activity,,EC50,,BaL,35 µM
Cc1cn([C@H]2C[C@H](N=[N+]=[N-])[C@@H](CO)O2)c(=O)[nH]c1=O,MT-4,MTT,,EC50,,Clinical isolate,0.0098 µg/mL
COC(=O)[C@H](C)NP(=O)(OC[C@@H]1C=C[C@H](n2cnc3c(NC4CC4)nc(N)nc32)C1)Oc1ccccc1,CEM,syncytia,,EC50,,IIIB,0.05 µM
CCC(O)C(N)C(=O)O,MT-4,syncytia,,EC50,,,<750 µM
CCN(CC)C(=O)OCC1CN(Cc2noc(=O)[nH]2)CCN1C(=O)c1cc(OC)c(OC)c(OC)c1,MDM,RT activity,,EC50,,BaL,>100 µM
C#C[C@@]1(COP(=O)(O)OP(=O)(O)OP(=O)(O)O)C=C[C@H](n2cc(C)c(=O)[nH]c2=O)O1,TZM-bl,luciferase,P119S/T165A,EC50,,NL4-3,0.34 µM
Cc1ccnc2c1NC(=O)c1cccnc1N2C1CC1,MT-4,MTT,K103N,EC50,,IIIB,5.6 µM
C=C1CC[C@@H](OC(=O)CCC(=O)OC2CC(COP(=O)(O)OC3CC(COP(=O)(O)OC4CC(CO)OC4n4cnc5c(N)ncnc54)OC3n3cnc4c(N)ncnc43)OC2n2cnc3c(N)ncnc32)C/C1=C/C=C1\CCC[C@]2(C)[C@@H]([C@@H](C)/C=C/[C@H](C)C(C)C)CC[C@@H]12,SupT1 + Sup-T1,syncytia,,EC50,,IIIB,<300 µM
O=C(OC1[C@H](OC(=O)c2cc(O)c(O)c(O)c2)CC(OC(=O)c2cc(O)c(O)c(O)c2)(C(=O)O)C[C@H]1OC(=O)c1cc(O)c(O)c(O)c1)c1cc(O)c(O)c(O)c1,H9,p24,,EC50,,IIIB,<25 µM
CCCCCCCC/C=C\CCCCCCCC(=O)OCC(COC(=O)CCCCCCC/C=C\CCCCCCCC)OC(=O)CCC(=O)O[C@@H](C[C@@H](Cc1ccccc1)C(=O)N[C@H]1c2ccccc2C[C@H]1OC(=O)CCC(=O)OC(COC(=O)CCCCCCC/C=C\CCCCCCCC)COC(=O)CCCCCCC/C=C\CCCCCCCC)CN1CCN(Cc2cccnc2)C[C@H]1C(=O)NC(C)(C)C,CEM,RT activity,,EC50,,LAI,>10 µM
Nc1nc(N)c2ncn([C@@H]3CS[C@@H](CO)O3)c2n1,MT-4,cytopathic effect,,EC50,,,22.4 µM
Nc1nc2c(ncn2[C@@H]2C[C@H](CO)[C@H]2CO)c(=O)[nH]1,,,,EC50,,,0.03 µg/mL
OCC(=CCn1cnc2c(Cl)ncnc21)CO,,,,EC50,,,>100 µg/mL
CCN(CC)C(=O)OCC1CN(C(=O)c2ccc(OC)cc2OC)CCN1C(=O)c1ccc(OC)cc1OC,MDM,RT activity,,EC50,,BaL,>100 µM
CC1(C)[C@@H](O[C@H]2O[C@H](C(=O)O)[C@@H](O)[C@H](O)[C@H]2O[C@@H]2O[C@H](C(=O)O)[C@@H](O)[C@H](O)[C@H]2O)CC[C@]2(C)[C@H]3C(=O)C=C4[C@@H]5C[C@@](C)(C(=O)O)CC[C@]5(C)CC[C@@]4(C)[C@]3(C)CC[C@@H]12,MOLT-4,RT activity,,EC50,3 d,IIIB,>1200 µM
CCOC(=O)c1nnsc1Nc1ccccc1Nc1snnc1C(=O)OCC,C8166,p24,,EC50,,NNRTI-R K103N Y181C,4.5 µM
C[C@@]1(n2ccc(=O)[nH]c2=O)CO[C@@H](CO)O1,MT-4,,,EC50,,,>100 µM
CCC(C)[C@@H](C(=O)N[C@@H](Cc1ccccc1)[C@H](O)CN(CC(C)C)S(=O)(=O)c1ccc(/C=N/O)cc1)N1CCN(Cc2cnccc2C)C1=O,MT-4,cytopathic effect / MTT,,EC50,50% human serum,,0.042 µM
CCCCCCCC/C=C\CCCCCCCC(=O)OCC(COC(=O)CCCCCCC/C=C\CCCCCCCC)OC(=O)CCC(=O)O[C@@H]1Cc2ccccc2[C@@H]1NC(=O)[C@H](Cc1ccccc1)C[C@H](O)CN1CCN(Cc2cccnc2)C[C@H]1C(=O)NC(C)(C)C,CEM,RT activity,,EC50,,LAI,2.1 µM
CCCCCCCCCCCCCCCC(=O)NCC1OC(n2cnc3c(N)ncnc32)C(OP(=O)(O)OCC2CC(OP(=O)(O)OCC3OC(n4cnc5c(N)ncnc54)C(O)C3O)C(n3cnc4c(N)ncnc43)O2)C1O,SupT1 + Sup-T1,syncytia,,EC50,,IIIB,<100 µM
CC(C)(C)NC(=O)[C@@H]1CN(Cc2cccnc2)CCN1C[C@H](C[C@@H](Cc1ccccc1)C(=O)N[C@H]1c2ccccc2C[C@H]1OC(=O)CCCCOc1ccc(C[C@H](N)C(=O)O)cc1)OC(=O)CCCCOc1ccc(C[C@H](N)C(=O)O)cc1,MT-4,cytopathic effect / MTT,,EC50,,IIIB,1.4 µM
CC(C)CCC[C@@H](C)[C@H]1CC[C@H]2[C@@H]3CC[C@H]4C[C@H](NC(=O)C=C(c5cc(Cl)c(O)c(C(=O)O)c5)c5cc(Cl)c(O)c(C(=O)O)c5)CC[C@]4(C)[C@H]3CC[C@]12C,MT-4,cytopathic effect / MTT,,EC50,,IIIB,>24.4 µM
Cc1cc(Nc2nc(-c3cccnc3)nc3ccccc23)c(Cl)cc1F,MT-4,ELISA,,EC50,,NL4-3,10 µM
Nc1nc(N)c2ncn([C@H]3CS[C@@H](CO)O3)c2n1,MT-4,cytopathic effect,,EC50,,,231.1 µM
CCOC(=O)c1cccc(Nc2nc(-c3cccnc3)nc3ccccc23)c1,MT-4,ELISA,,EC50,,NL4-3,2 µM
O=c1[nH]cnc2c1ncn2[C@H]1CS[C@@H](CO)O1,MT-4,cytopathic effect,,EC50,,,>410 µM
Cc1cn([C@H]2C[C@H](N=[N+]=[N-])[C@@H](CO)O2)c(=O)[nH]c1=O,PBMC,RT activity,,EC50,,RW/92/016 (subtype A/A),0.00047 µM
Cc1cc(C#N)cc(C(=O)c2ccccc2OCC(=O)Nc2ccc(S(N)(=O)=O)cc2C)c1,HeLa MAGI + HeLa,β-galactosidase,RT-K103N,EC50,,,~0.001 µM
COc1cc(-c2cccnc2)nc2ccccc12,MT-4,ELISA,,EC50,,NL4-3,10–15 µM
Nc1nc2c(ncn2CC=C(CO)CO)c(=O)[nH]1,,,,EC50,,,>100 µg/mL
COC(=O)C(C)NP(=O)(OC[C@H]1S[C@@H](n2cc(F)c(=O)[nH]c2=O)C[C@@H]1O)Oc1ccccc1,CEM,,,EC50,,,21.5 µM
Nc1ncnc2c1ncn2C/C=C(/CO)c1ccccc1,,,,EC50,,,>100 µg/mL
Cc1cc2c(c3oc(=S)cc(C)c13)[C@@H](OC(=O)C13CCC(C)(C(=O)O1)C3(C)C)[C@@H](OC(=O)C13CCC(C)(C(=O)O1)C3(C)C)C(C)(C)O2,H9,,,EC50,,IIIB,0.262 µM
C/C(=C\Cn1cnc2c(N)ncnc21)CO,,,,EC50,,,>100 µg/mL
Nc1nc2c(ncn2[C@@H]2CS[C@@H](CO)O2)c(=O)[nH]1,MT-4,cytopathic effect,,EC50,,,>372 µM
CCCCCCCC/C=C\CCCCC(CCC(=O)O)NC1c2ccc3cc4c5c6c(cc7ccc8cc9cc1c1c9c9c8c7c6c9c6c1c2c3c56)C4,MT-4,p24,,EC50,,,10 µM
CCCCCCCC/C=C\CCCCCCCC(=O)O[C@H](CN1C[C@H]2CCCC[C@H]2C[C@H]1C(=O)NC(C)(C)C)[C@H](Cc1ccccc1)NC(=O)[C@H](CC(N)=O)NC(=O)c1ccc2ccccc2n1,CEM,RT activity,,EC50,,LAI,1.3 µM
CCC(C)[C@@H](C(=O)N[C@@H](Cc1ccccc1)[C@H](O)CN(CC(C)C)S(=O)(=O)c1ccc(/C=N/O)cc1)N1CCN(Cc2ccncc2)C1=O,MT-4,cytopathic effect / MTT,,EC50,50% human serum,,0.023 µM
CCCCCCCCCCCCCCCC(=O)NCC1OC(n2cnc3c(N)ncnc32)C(OP(=O)(O)OCC2OC(n3cnc4c(N)ncnc43)C(OP(=O)(O)OCC3CC(O)C(n4cnc5c(N)ncnc54)O3)C2O)C1O,SupT1 + Sup-T1,syncytia,,EC50,,IIIB,<100 µM
Cc1cc2c(c3oc(=S)ccc13)[C@@H](OC(=O)C13CCC(C)(C(=O)O1)C3(C)C)[C@@H](OC(=O)C13CCC(C)(C(=O)O1)C3(C)C)C(C)(C)O2,H9,,,EC50,,IIIB,0.0199 µM
COCc1cccc(CN2CCN([C@H](C(=O)N[C@@H](Cc3ccccc3)[C@H](O)CN(CC(C)C)S(=O)(=O)c3ccc(/C=N/O)cc3)C(C)(C)C)C2=O)n1,MT-4,cytopathic effect / MTT,,EC50,,,0.002 µM
C[C@@]1(n2ccc(N)nc2=O)CO[C@@H](CO)O1,MT-4,,,EC50,,,>100 µM
Cc1c(O)cccc1C(=O)N[C@@H](CSc1ccccc1)[C@@H](CN1C[C@H]2CCCC[C@H]2C[C@H]1C(=O)NC(C)(C)C)OC(=O)NCCCCOc1ccc(C[C@H](N)C(=O)O)cc1,MT-4,cytopathic effect / MTT,,EC50,,IIIB,>10 µM
Cc1cc(C#N)cc(C)c1Oc1nc(Nc2ccc(C#N)cc2)nc(N)c1Br,MT-4,MTT,E138K,EC50,,IIIB,0.0067 µM
CCCCCCCCCCCCCCCCOCC(COC(=O)CCC(=O)OCC1CC(OP(=O)(O)OCC2CC(OP(=O)(O)OCC3CC(O)C(n4cnc5c(N)ncnc54)O3)C(n3cnc4c(N)ncnc43)O2)C(n2cnc3c(N)ncnc32)O1)OCCCCCCCCCCCCCCCC,SupT1 + Sup-T1,syncytia,,EC50,,IIIB,<300 µM
Cc1cn([C@]2(C)CO[C@@H](CO)O2)c(=O)[nH]c1=O,MT-4,,,EC50,,,>100 µM
Cc1ccc(-c2c(C)c3c(c(C)c2[C@H](OC(C)(C)C)C(=O)O)N(S(C)(=O)=O)Cc2cccc(F)c2-3)c(O)c1,MT-4,MTT,,EC50,,,0.02 µM
Nc1nc(NC2CC2)c2ncn([C@H]3C=C[C@@H](CO)C3)c2n1,MT-4 + CEM,cytopathic effect,,EC50,,IIIB,5.9 µM
COC(=O)C(C)NP(=O)(OC[C@H]1O[C@@H](n2cc(F)c(=O)[nH]c2=O)C[C@@H]1O)Oc1ccccc1,CEM + CEM TK-,,,EC50,,,>100 µM
Cc1c(C)c2c(c(C)c1OC(=O)OC1CC(COP(=O)(O)OC3CC(COP(=O)(O)OC4CC(CO)OC4n4cnc5c(N)ncnc54)OC3n3cnc4c(N)ncnc43)OC1n1cnc3c(N)ncnc31)CCC(C)(CCCC(C)CCCC(C)CCCC(C)C)O2,SupT1 + Sup-T1,syncytia,,EC50,,IIIB,<300 µM
O=c1[nH]cnc2c1ncn2C/C=C(/CO)c1ccccc1,,,,EC50,,,>100 µg/mL
CCN(CC)C(=O)OCC1CN(C(=S)c2cc(OC)c(OC)c(OC)c2)CCN1C(=O)c1cc(OC)c(OC)c(OC)c1,MDM,RT activity,,EC50,,BaL,>10 µM
COc1c(Cl)cc(C(=CCN[C@H]2CC[C@@]3(C)[C@@H](CC[C@@H]4[C@@H]3CC[C@]3(C)[C@@H]([C@H](C)CCCC(C)C)CC[C@@H]43)C2)c2cc(Cl)c(OC)c(C(=O)O)c2)cc1C(=O)O,CEM + CEM-SS,cytopathic effect / XTT,,EC50,,RF,>125 µM
O=c1ccn([C@@H]2CS[C@@H](CO)O2)c(=O)[nH]1,MT-4,cytopathic effect,,EC50,,,>437 µM
CCCCCCCCCCCCCCCC(=O)NCC1CC(OP(=O)(O)OCC2CC(OP(=O)(O)OCC3CC(O)C(n4cnc5c(N)ncnc54)O3)C(n3cnc4c(N)ncnc43)O2)C(n2cnc3c(N)ncnc32)O1,SupT1 + Sup-T1,syncytia,,EC50,,IIIB,<100 µM
C/C(=C\Cn1cnc2c(=O)[nH]cnc21)CO,,,,EC50,,,47.2 µg/mL
COc1c(Cl)cc(C(=CCN[C@@H]2CC[C@@]3(C)[C@@H](CC[C@@H]4[C@@H]3CC[C@]3(C)[C@@H]([C@H](C)CCCC(C)C)CC[C@@H]43)C2)c2cc(Cl)c(OC)c(C(=O)O)c2)cc1C(=O)O,CEM + CEM-SS,cytopathic effect / XTT,,EC50,,RF,>61.7 µM

An empty or dashed field is not shown. ECn: concentration that inhibits the pathogen or its effect by n%. Lines come from different laboratories, so protocols vary.